Measured values from several laboratories, pooled; numbers as filed in NIAID ChemDB.

Common to all: tests on isolated targets

Two numbers with a dash give a range or band. Percent inhibition refers to the dose given; in toxicity tests it is the harm to the cells. Rows are shuffled and stem from different studies. ICn: concentration for n% inhibition. Blank or dashed fields: not listed here.

compound	protein	read-out	species	dose	strain	value
COc1nc(Nc2ccc3[nH]ncc3c2)nc(N2CCOCC2)n1	DNA polymerase	inhibition	Hepatitis B virus	0.1 µg/mL	-	50%
CC[C@@H]1C[C@]1(NC(=O)[C@@H]1C[C@@H](Oc2cc(-c3ccccc3)nc3cc(OC)ccc23)CN1C(=O)[C@@H](NC(=O)OC(C)(C)C)C(C)C)C(=O)NS(C)(=O)=O	NS3/NS4A protease	IC50	Hepatitis C virus	-	BMS	<0.5 µM
COc1nc(Nc2ccc3cn[nH]c3c2)nc(-n2ccnc2)n1	DNA polymerase	inhibition	Hepatitis B virus	0.1 µg/mL	-	40%
CC(C)Nc1cccnc1N1CCN(C(=O)c2ccc(C(=O)NC(C)(C)CO)cn2)CC1	Reverse transcriptase	IC50	Hepatitis B virus	-	-	0.001 µg/mL
COc1nc(NCCN2CCOCC2)nc(Nc2ccc3cn[nH]c3c2)n1	DNA polymerase	inhibition	Hepatitis B virus	0.1 µg/mL	-	54%
Cc1ccn(NC(=O)c2ccc(C(=O)N3CCN(c4ncccc4NC(C)C)CC3)nc2)n1	Reverse transcriptase	IC50	Hepatitis B virus	-	-	0.124 µg/mL
Cc1csc(C(=O)N(C)c2cc(-c3ccccc3)sc2C(=O)O)c1	NS3 ATPase	IC50	Hepatitis C virus	-	-	5–20 µM
C=CC1CC1(NC(=O)[C@@H]1C[C@@H](Oc2cc(-c3ccccc3)nc3cc(OC)ccc23)CN1C(=O)[C@H](CC1CCCCC1)NC(=O)OC(C)(C)C)C(=O)NS(C)(=O)=O	NS3/NS4A protease	IC50	Hepatitis C virus	-	BMS	<0.5 µM
O=C(O)[C@H](Cc1ccccc1)N(Cc1ccc(-c2ccc(Br)cc2)o1)C(=O)c1ccc(Cl)cc1Cl	RNA-dependent RNA polymerase	IC50	Hepatitis C virus	-	-	<5 µM
CC[C@@H]1C[C@]1(NC(=O)[C@@H]1C[C@@H](Oc2cc(-c3ccccc3)nc3cc(OC)ccc23)CN1C(=O)[C@@H](NC(=O)OC(C)C)C(C)C)C(=O)NS(=O)(=O)C1CC1	NS3/NS4A protease	IC50	Hepatitis C virus	-	BMS	<0.05 µM
FC(F)(F)Oc1ccc(COc2ccc(-c3cnc4c(-c5nn[nH]n5)cnn4c3C3CCCCC3)cc2)cc1Cl	RNA-dependent RNA polymerase	IC50	Hepatitis C virus	-	-	1–10 µM
COc1ccc(-c2ccc(Cl)cc2)c(-c2ccc3cc(-c4nc5cc(C(=O)O)ccc5n4C4CCNCC4)ccc3n2)c1	NS5B polymerase	inhibition	Hepatitis C virus	100 µM	-	77.35%
Cc1ccc(C(=O)N(C)c2cc(-c3cccc(O)c3)sc2C(=O)O)cc1	NS3 ATPase	IC50	Hepatitis C virus	-	-	<5 µM
COc1ccc(-c2ccc(Cl)cc2)c(-c2ccc3cc(-c4nc5cc(C(=O)O)ccc5n4C4CC(C)CC(C)(C)C4)ccc3n2)c1	NS5B polymerase	inhibition	Hepatitis C virus	100 µM	-	101%
O=C(O)[C@H](Cc1ccccc1)N(Cc1cnc(N2CCN(c3ccccc3)CC2)s1)C(=O)c1ccc(Cl)cc1Cl	RNA-dependent RNA polymerase	IC50	Hepatitis C virus	-	-	5–20 µM
COc1nc(NCCc2c[nH]c3ccccc23)nc(Nc2ccc3cn[nH]c3c2)n1	DNA polymerase	inhibition	Hepatitis B virus	0.01 µg/mL	-	20%
CC[C@H](NC(=O)[C@@H](NC(=O)[C@@H](NC(=O)[C@H](CC(C)C)NC(=O)[C@@H](CCC(=O)O)NC(=O)[C@H](CC(=O)O)NC(C)=O)[C@@H](C)CC)C1CCCCC1)C(=O)CCCCCC(C)C	HCV NS3 protease	IC50	Hepatitis C virus	-	-	1–10 µM
O=C(NCC(c1ccccc1)c1ccccc1)Nc1cscc1-c1nc(C(=O)O)c(O)c(=O)[nH]1	HCV polymerase	IC50	Hepatitis C virus	-	-	<25 µM
CC(C)NC(=O)c1ccc(C(=O)N2CCN(c3ncccc3N)CC2)nc1	Reverse transcriptase	IC50	Hepatitis B virus	-	-	0.023 µg/mL
NC(=O)CNC(=O)c1ccc(-c2ccccc2)c(-c2ccc3cc(-c4nc5cc(C(=O)O)ccc5n4C4CCCCC4)ccc3n2)c1	NS5B polymerase	inhibition	Hepatitis C virus	100 µM	-	99.42%
O=C(O)C(Cc1ccccc1)N(Cc1cc(-c2ccc(Cl)c(F)c2)cs1)C(=O)c1ccc(Cl)cc1Cl	RNA-dependent RNA polymerase	IC50	Hepatitis C virus	-	-	<5 µM
CC(C)NC(=O)c1ccc(C(=O)N2CCN(c3ncccc3NC(C)C)CC2)nc1	Reverse transcriptase	IC50	Hepatitis B virus	-	-	0.149 µg/mL
CCCC(=O)[C@H](CC)NC(=O)[C@@H](NC(=O)[C@@H](NC(=O)[C@H](CC(C)C)NC(=O)[C@@H](CCC(=O)O)NC(=O)[C@H](CC(=O)O)NC(C)=O)[C@@H](C)CC)C1CCCCC1	HCV NS3 protease	inhibition	Hepatitis C virus	1 µM	-	40%
O=C(Nc1cscc1-c1nc(C(=O)O)c(O)c(=O)[nH]1)OCc1ccccc1C(F)(F)F	HCV polymerase	IC50	Hepatitis C virus	-	-	<25 µM
FC(F)(F)c1ccc(Cl)c(COc2ccc(-c3cnc4c(-c5nn[nH]n5)cnn4c3C3CCCCC3)cc2)c1	RNA-dependent RNA polymerase	IC50	Hepatitis C virus	-	-	1–10 µM
O=C(Nc1ccccc1-c1nc(C(=O)O)c(O)c(=O)[nH]1)c1cccc([N+](=O)[O-])c1	HCV polymerase	IC50	Hepatitis C virus	-	-	<100 µM
Cc1cccc(-c2cc(NS(=O)(=O)c3ccccc3C)c(C(=O)O)s2)c1	NS3 ATPase	IC50	Hepatitis C virus	-	-	<5 µM
CC[C@H](NC(=O)[C@@H](NC(=O)[C@@H](NC(=O)[C@H](CC(C)C)NC(=O)[C@@H](CCC(=O)O)NC(=O)[C@H](CC(=O)O)NC(C)=O)[C@@H](C)CC)C1CCCCC1)C(=O)O	HCV NS3 protease	inhibition	Hepatitis C virus	1 µM	-	17%
O=C(NCc1ccc(F)cc1)Nc1ccccc1-c1nc(C(=O)O)c(O)c(=O)[nH]1	HCV polymerase	IC50	Hepatitis C virus	-	-	<100 µM
C=C[C@@H]1C[C@]1(NC(=O)[C@@H]1C[C@@H](Oc2cc(-c3ccccc3)nc3cc(OC)ccc23)CN1C(=O)[C@@H](NC(=O)C(F)(F)F)C(C)(C)C)C(=O)NS(=O)(=O)C1CC1	NS3/NS4A protease	IC50	Hepatitis C virus	-	BMS	<0.05 µM
O=C(O)c1sc(-c2ccccc2)cc1NC(=O)N1CCN(c2cccc(Cl)c2)CC1	NS3 ATPase	IC50	Hepatitis C virus	-	-	5–20 µM
C=C[C@@H]1C[C@]1(NC(=O)[C@@H]1C[C@@H](Oc2cc(-c3ccccc3)nc3cc(OC)ccc23)CN1C(=O)[C@@H](NC(=O)C1(O)CC1)C(C)(C)C)C(=O)NS(=O)(=O)C1CC1	NS3/NS4A protease	IC50	Hepatitis C virus	-	BMS	<0.05 µM
CC[C@H](NC(=O)[C@@H](NC(=O)[C@@H](NC(=O)[C@H](CC(C)C)NC(=O)[C@@H](CCC(=O)O)NC(=O)[C@H](CC(=O)O)NC(C)=O)[C@@H](C)CC)C1CCCCC1)C(O)/C=C/CCCC(C)C	HCV NS3 protease	IC50	Hepatitis C virus	-	-	<10 µM
CC(C)Nc1cccnc1N1CCN(C(=O)c2ccc(C(=O)NC3CCCC3)cn2)CC1	Reverse transcriptase	IC50	Hepatitis B virus	-	-	0.029 µg/mL
O=C(O)c1nc(-c2ccccc2NS(=O)(=O)c2ccccn2)[nH]c(=O)c1O	HCV polymerase	IC50	Hepatitis C virus	-	-	<100 µM
COCCNc1nc(Nc2ccc3[nH]ncc3c2)nc(OC)n1	DNA polymerase	inhibition	Hepatitis B virus	1 µg/mL	-	73%
CC[C@H](NC(=O)[C@@H](NC(=O)[C@@H](NC(=O)[C@H](CC(C)C)NC(=O)[C@@H](CCC(=O)O)NC(=O)[C@H](CC(=O)O)NC(C)=O)[C@@H](C)CC)C1CCCCC1)C(=O)/C=C/c1ccc(OC)cc1	HCV NS3 protease	inhibition	Hepatitis C virus	10 µM	-	100%
O=C(O)c1cc2nc(-c3ccc(Cl)cc3)cc(N3CCN(c4ccccn4)CC3)n2n1	RNA-dependent RNA polymerase	IC50	Hepatitis C virus	-	-	>10 µM
CC[C@H](NC(=O)[C@@H](NC(=O)[C@@H](NC(=O)[C@H](CC(C)C)NC(=O)[C@@H](CCC(=O)O)NC(=O)[C@H](CC(=O)O)NC(C)=O)[C@@H](C)CC)C1CCCCC1)C(=O)/C=C/c1nccs1	HCV NS3 protease	IC50	Hepatitis C virus	-	-	1 µM
Cc1ccc(S(=O)(=O)Nc2cc(C(C)(C)C)sc2C(=O)O)c(C)c1	NS3 ATPase	IC50	Hepatitis C virus	-	-	5–20 µM
O=C(O)c1nc(-c2ccccc2NS(=O)(=O)c2ccc(Cl)c(Cl)c2)[nH]c(=O)c1O	HCV polymerase	IC50	Hepatitis C virus	-	-	<100 µM
CC[C@H](NC(=O)[C@@H](NC(=O)[C@@H](NC(=O)[C@H](CC(C)C)NC(=O)[C@@H](CCC(=O)O)NC(=O)[C@H](CC(=O)O)NC(C)=O)[C@@H](C)CC)C1CCCCC1)C(=O)CCc1ccccc1	HCV NS3 protease	IC50	Hepatitis C virus	-	-	1–10 µM
COc1nc(Nc2ccc3[nH]ncc3c2)nc(NN2CCOCC2)n1	DNA polymerase	inhibition	Hepatitis B virus	0.1 µg/mL	-	31%
CN(C(=O)c1cc(Cl)cc(Cl)c1)c1cc(-c2ccccc2)sc1C(=O)O	NS3 ATPase	IC50	Hepatitis C virus	-	-	5–20 µM
CN(c1ccccc1)c1cc(-c2ccc(Cl)cc2)nc2cc(C(=O)O)nn12	RNA-dependent RNA polymerase	IC50	Hepatitis C virus	-	-	>10 µM
O=C(O)[C@H](Cc1ccccc1)N(Cc1ccc(Br)o1)C(=O)c1ccc(Cl)cc1Br	RNA-dependent RNA polymerase	IC50	Hepatitis C virus	-	-	<5 µM
CC(NC(=O)Nc1cscc1-c1nc(C(=O)O)c(O)c(=O)[nH]1)c1nc2ccccc2[nH]1	HCV polymerase	IC50	Hepatitis C virus	-	-	<25 µM
COc1ccc(-c2ccco2)c(-c2ccc3cc(-c4nc5cc(C(=O)O)ccc5n4C4CCCCC4)ccc3n2)c1	NS5B polymerase	inhibition	Hepatitis C virus	100 µM	-	101%
COc1nc(Nc2ccc3[nH]ncc3c2)nc(N2CCCC2)n1	DNA polymerase	inhibition	Hepatitis B virus	0.01 µg/mL	-	10%
C=C[C@@H]1C[C@]1(NC(=O)[C@@H]1C[C@@H](Oc2cc(-c3ccccc3)nc3cc(OC)ccc23)CN1C(=O)[C@@H](NC(=O)OC(C)(C)C)C(C)(C)C)C(=O)NS(=O)(=O)c1cccc([N+](=O)[O-])c1	NS3/NS4A protease	IC50	Hepatitis C virus	-	BMS	<0.05 µM
CC(NC(=O)Nc1cccc(-c2nc(C(=O)O)c(O)c(=O)[nH]2)c1)c1cccc2ccccc12	HCV polymerase	IC50	Hepatitis C virus	-	-	<100 µM
COc1ccc(-c2ccc(F)cc2)c(-c2ccc3cc(-c4nc5cc(C(=O)O)ccc5n4C4CCCCC4)ccc3n2)c1	NS5B polymerase	inhibition	Hepatitis C virus	100 µM	-	99.79%
CC[C@H](NC(=O)[C@@H](NC(=O)[C@@H](NC(=O)[C@H](CC(C)C)NC(=O)[C@@H](CCC(=O)O)NC(=O)[C@H](CC(=O)O)NC(C)=O)[C@@H](C)CC)C1CCCCC1)C(=O)/C=C/CCCC(C)C	HCV NS3 protease	inhibition	Hepatitis C virus	1 µM	-	42%
O=C(O)C(Cc1ccccc1)N(Cc1cc(-c2ccc(Cl)cc2Cl)cs1)C(=O)c1ccc(Cl)cc1Cl	RNA-dependent RNA polymerase	IC50	Hepatitis C virus	-	-	<5 µM
Nc1cccnc1N1CCN(C(=O)c2ccc(C(=O)NCCO)cn2)CC1	Reverse transcriptase	IC50	Hepatitis B virus	-	-	0.003 µg/mL
Cc1nn(-c2ccccc2)c(C)c1-c1ccc2cc(-c3nc4cc(C(=O)O)ccc4n3C3CCCCC3)ccc2n1	NS5B polymerase	inhibition	Hepatitis C virus	100 µM	-	100%
O=C(O)c1sc(-c2ccccc2)cc1NS(=O)(=O)c1ccc(C(F)(F)F)cn1	NS3 ATPase	IC50	Hepatitis C virus	-	-	5–20 µM
C=C[C@@H]1C[C@]1(NC(=O)[C@@H]1C[C@@H](Oc2cc(-c3ccccc3)nc3cc(OC)ccc23)CN1C(=O)[C@@H](NC(=O)OC(C)(C)C)C(C)(C)C)C(=O)NS(=O)(=O)C(C)C	NS3/NS4A protease	IC50	Hepatitis C virus	-	BMS	<0.05 µM
COc1nc(Nc2ccc3[nH]ncc3c2)nc(N2CCN(C)CC2)n1	DNA polymerase	IC50	Hepatitis B virus	-	-	0.1–1 µg/mL
C=C[C@@H]1C[C@]1(NC(=O)[C@@H]1C[C@@H](Oc2cc(-c3ccccc3)nc3cc(OC)ccc23)CN1C(=O)[C@@H](NC(=O)OCC1CC1)C(C)(C)C)C(=O)NS(=O)(=O)C1CC1	NS3/NS4A protease	IC50	Hepatitis C virus	-	BMS	<0.05 µM
O=C(O)C(Cc1ccccc1)N(Cc1cc(-c2cccc(F)c2)cs1)C(=O)c1ccc(Cl)cc1Cl	RNA-dependent RNA polymerase	IC50	Hepatitis C virus	-	-	<5 µM
Clc1ccc(Oc2ccc(-c3cnc4c(-c5nn[nH]n5)cnn4c3C3CCCCC3)cc2)cc1Cl	RNA-dependent RNA polymerase	IC50	Hepatitis C virus	-	-	1–10 µM
COc1nc(NCCCn2ccnc2)nc(Nc2ccc3cn[nH]c3c2)n1	DNA polymerase	inhibition	Hepatitis B virus	0.01 µg/mL	-	25%
CCCC(=O)N(Cc1ccccc1C)c1cc(-c2ccccc2)sc1C(=O)O	NS3 ATPase	IC50	Hepatitis C virus	-	-	5–20 µM